SMILES strings stand for the structures.

For assay [1], the target named is Dihydroorotate dehydrogenase (quinone), mitochondrial (Plasmodium falciparum (isolate 3D7), UniProt Q08210, R265A). As to the kind of experiment: Inhibition of Plasmodium falciparum DHODH R265A mutant.
The target in assay [2] is Dihydroorotate dehydrogenase (quinone), mitochondrial (Plasmodium falciparum (isolate 3D7), UniProt Q08210, F227A). The assay can be described thus: Inhibition of Plasmodium falciparum DHODH F227A mutant.

As for `Cc1cc(Nc2ccc3ccccc3c2)n2ncnc2n1`, the half-maximal inhibitory concentration (IC50) stood at 6.1 µM in assay [1] and 44 µM in assay [2].
